Residual activity data for three compounds are collected here from PMC3983855, “Identification and enzymatic characterization of acid phosphatase from Burkholderia gladioli” (BMC Research Notes, 2014).

For this series, the system named is membrane-bound acid phosphatase (MBAcP). Description: PNPPase inhibition, residual activity. In kind it is biochemical, Burkholderia gladioli. As to conditions: 1 mM PNPP, 50 mM acetate pH 6.0, 37°C, membrane fraction.

For `O=[As](O)(O)O` [arsenate], the Residual activity (1000 µM) stood at 14%.
`O=P(O)(O)O` [phosphate] returned a Residual activity (10000 µM) of 38%.
Compound `[O]=[V]([OH])([OH])[OH]` [vanadate] displayed a Residual activity (500 µM) of 6%.
